Test results reported in WO2001000678A1.
“And” between values parts separate entries of the source, which are not always exact repeats. Identical values can stand only once.

What was measured:
[1] = molecular target: recombinant HIV-1 envelope glycoprotein gp120 (HIV-1 (clone derived from HIV-1 IIIb)); experiment: competition ELISA on gp120, soluble CD4 against biotinylated Fab 6
[2] = molecular target: recombinant HIV-1 envelope glycoprotein gp120 (HIV-1 (clone derived from HIV-1 IIIb)); experiment: competition ELISA on gp120, soluble CD4 against biotinylated Fabs 4 and 7 (group; member at this end not told)
[3] = molecular target: recombinant HIV-1 envelope glycoprotein gp120 (HIV-1 (clone derived from HIV-1 IIIb)); experiment: competition ELISA on gp120, soluble CD4 against biotinylated Fab 3
[4] = molecular target: recombinant HIV-1 envelope glycoprotein gp120 (HIV-1 (clone derived from HIV-1 IIIb)); experiment: competition ELISA on gp120, soluble CD4 against biotinylated Fab 1
[5] = molecular target: recombinant HIV-1 envelope glycoprotein gp120 (HIV-1 (clone derived from HIV-1 IIIb)); experiment: competition ELISA on gp120, soluble CD4 against biotinylated F105 Fab
[6] = molecular target: recombinant HIV-1 envelope glycoprotein gp120 (HIV-1 (clone derived from HIV-1 IIIb)); experiment: competition ELISA on gp120, soluble CD4 against biotinylated Fab 5
[7] = molecular target: recombinant HIV-1 envelope glycoprotein gp120 (HIV-1 (clone derived from HIV-1 IIIb)); experiment: competition ELISA on gp120, soluble CD4 against biotinylated Fab 2

recombinant CD4 (from UniProt P01730 26-394) (receptor)
IC50 [1]: 0.2 µg/mL | IC50 [2]: 0.7 µg/mL and 0.8 µg/mL | IC50 [3]: 0.3 µg/mL | IC50 [4]: 0.3 µg/mL | IC50 [5]: 0.6 µg/mL | IC50 [6]: 0.5 µg/mL | IC50 [7]: 0.5 µg/mL
